According to publication PMC11950254, “Antiviral Susceptibility of Influenza A(H5N1) Clade 2.3.2.1c and 2.3.4.4b Viruses from Humans, 2023–2024” (2025):

What was measured:
[1] = target: NA activity of A/Cambodia/2302009/2023 (Influenza A virus, UniProt A0A1L2FNJ6, V129I)
[2] = target: NA activity of A/Cambodia/NPH230032/2023 (Influenza A virus, UniProt A0A1L2FNJ6, V129I)
[3] = test system: Clade 2.3.2.1c viruses, n = 7; test: IRINA (influenza replication inhibition NA-based assay); details: early 2023 nonreassortant vs other clade 2.3.2.1c viruses
[4] = test system: A/California/07/2009 (H1N1)pdm09, M2-S31N; details: 21 hpi, maximum reduction at M2 blocker concentrations <1 µg/mL, MDCK-SIAT1
[5] = test system: A/Wisconsin/53/2009 (H1N1)pdm09; test: Virus yield reduction assay; details: MDCK-SIAT1
[6] = test system: A/Cambodia/KSH230332/2023; test: Virus yield reduction assay; details: MDCK-SIAT1
A/Michigan/90/2024 = test: Virus yield reduction assay; details: 16 hpi; MDCK-SIAT1
A/Chile/25945/2023 = test: Virus yield reduction assay; details: MDCK-SIAT1
A/Texas/37/2024 = test: Virus yield reduction assay; details: MDCK-SIAT1
[7] = test system: A/bald eagle/FL/2022 (H5N1); test: Virus yield reduction assay; details: MDCK-SIAT1
[8] = test system: A/Wisconsin/53/2009 (H1N1)pdm09
[9] = 21 hpi, maximum reduction at M2 blocker concentrations <1 µg/mL

| Molecule | IC50 [1] [nM] | IC50 [2] [nM] | fold lower EC50s of early 2023 clade 2.3.2.1c viruses compared with other viruses from this clade [3] | log reduction in titer ([4]; listed as amantadine) [log10] | log reduction in titer ([5]; 16 hpi) [log10] | log reduction in titer [5, 9] [log10] | log reduction in titer ([5]; 21 hpi, maximum reduction at M2 blocker concentrations <1 µg/mL, listed as amantadine) | log reduction in titer ([6]; 16 hpi) [log10] | log reduction in titer [6, 9] [log10] | log reduction in titer (A/Michigan/90/2024) [log10] | log reduction in titer (A/Chile/25945/2023; 16 hpi) [log10] | log reduction in titer (A/Chile/25945/2023; [9]) [log10] | log reduction in titer (A/Texas/37/2024; 16 hpi) [log10] | log reduction in titer (A/Texas/37/2024; [9]) [log10] | log reduction in titer ([7]; 16 hpi) [log10] | log reduction in titer [7, 9] [log10] | log reduction in titer ([4]; listed as rimantadine) [log10] | Mean EC50 ±SD [8] [ng/mL] | log reduction in titer ([5]; 21 hpi, maximum reduction at M2 blocker concentrations <1 µg/mL, listed as rimantadine) | Mean EC50 ±SD (A/Cambodia/24020155/2024) [ng/mL] |
| --- | --- | --- | --- | --- | --- | --- | --- | --- | --- | --- | --- | --- | --- | --- | --- | --- | --- | --- | --- | --- |
| oseltamivir carboxylate | 1 | 0.78 |  |  |  |  |  |  |  |  |  |  |  |  |  |  |  |  |  |  |
| O=C(O)[C@H]1C2CCC(CC2)[C@@H]1Nc1nc(-c2c[nH]c3ncc(F)cc23)ncc1F |  |  | ≈ 6 fold |  |  |  |  |  |  |  |  |  |  |  |  |  |  |  |  |  |
| NC12CC3CC(CC(C3)C1)C2 |  |  |  | < 0.2 | 3.0 | 3.0 | ≈ 3.0 log10 | 2.0 | 1.3 | 5.1 | 1.2 | 0.5 | 3.6 | 1.1 | 3.4 | 2.2 |  |  |  |  |
| CC(N)C12CC3CC(CC(C3)C1)C2 (stereo not shown) |  |  |  |  | 3.7 | 3.1 |  | 2.2 | 1.8 | 5.1 | 1.6 | 0.7 | 5.5 | 1.7 | 3.5 | 2.3 | < 0.2 | 6.48 ± 1.46 | ≈ 3.0 log10 | 6.48 ± 1.88 |

Like-named read-outs stand apart in the source and are kept apart here.
